Pooled drug test results. Numbers come from NIAID ChemDB, via PubChem.

Shared fields: cytotoxicity tests; cell line: MT-4; endpoint: CC50

CCn: concentration that lowers growth or viability of the cells by n%. Rows are shuffled and stem from different studies.

Cn1cc(C(=O)O)c(=O)c2cnc(N3CCN(c4nc5ccccc5s4)CC3)cc21 ; method: MTT ; result: >297 µM
CC(C)CN(C[C@@H](O)[C@H](Cc1ccccc1)NC(=O)OC1COC2OCCC12)S(=O)(=O)c1ccc2ncn(Cc3ccccc3)c2c1 ; result: 63.1 µM
C=Cn1cc(C(=O)O)c(=O)c2ccc(N3CCN(c4nc5ccccc5o4)CC3)nc21 ; method: MTT ; result: 18.3 µM
CC(C)(C)OC(=O)N(CCCCCCN(Cc1ccccc1)C(=O)OC(C)(C)C)CCCCCC(=O)N(CC(=O)CN(Cc1ccccc1)C(=O)CCCCCN(CCCCCCN(Cc1ccccc1)C(=O)OC(C)(C)C)C(=O)OC(C)(C)C)Cc1ccccc1 ; result: 50 µM
C=Cn1cc(C(=O)O)c(=O)c2ccc(N3CCN(c4cccc(C(F)(F)F)c4)CC3)nc21 ; method: MTT ; result: 120 µM
CC(=O)NC[C@H]1CN(c2ccc(N3CCSCC3)c(F)c2)C(=O)O1 ; result: >100 µM
CC(C)CN(C[C@@H](O)[C@H](Cc1ccccc1)NC(=O)O[C@H]1CCOC1)S(=O)(=O)c1ccc2nc(N)[nH]c2c1 ; result: 89.1 µM
CC(C)(C)OC(=O)N(CCCN(Cc1ccccc1)C(=O)OC(C)(C)C)CCC(=O)N(CC(=O)CN(Cc1ccccc1)C(=O)CCN(CCCN(Cc1ccccc1)C(=O)OC(C)(C)C)C(=O)OC(C)(C)C)Cc1ccccc1 ; result: 50 µM
Cc1cn([C@H]2C[C@H](N=[N+]=[N-])[C@@H](CO)O2)c(=O)[nH]c1=O ; method: MTT ; result: 358.5 µg/mL
CC(C)(C)NC(=O)[C@@H]1CN(Cc2cncs2)CCN1C[C@@H](O)C[C@@H](Cc1ccccc1)C(=O)N[C@H]1c2ccccc2C[C@H]1O ; result: >100 µM
CN1CCc2nc(C(=O)NCc3ccc(F)cc3)c(O)c(=O)n2C1=O ; method: microscopy ; result: >1 µM
Cc1cn([C@@H]2O[C@H](CO[Si](C)(C)C(C)(C)C)[C@@H](O)[C@H]2O[Si](C)(C)C(C)(C)C)c(=O)[nH]c1=O ; result: 5.7 µg/mL
CCOP(=O)(/C=C/[C@]1(C(F)(F)F)CC[C@H](n2cnc3c(N)ncnc32)C1)OCC ; method: MTT ; result: 98 µM
Cc1c(N)cccc1C(=O)N[C@@H](Cc1ccccc1)[C@H](O)CN(CC(C)C)S(=O)(=O)c1ccc2nc[nH]c2c1 ; result: >100 µM
Cc1cc(CNC(=O)c2nc3n(c(=O)c2O)CCN(CC2CC2)CC3N(C)C(=O)C(=O)N(C)C)ccc1F ; method: microscopy ; result: >1 µM
CC(C)CN(C[C@@H](O)[C@H](Cc1ccccc1)NC(=O)O[C@H]1CCOC1)S(=O)(=O)c1ccc2nc(NC(=O)NCCN(C)C)[nH]c2c1 ; result: >10 µM
Nc1ncnc2c1ncn2[C@H]1CC[C@](CCP(=O)(O)O)(C(F)(F)F)C1 ; method: MTT ; result: 95 µM
CN1CCn2c(nc(C(=O)NCc3ccc(F)cc3)c(O)c2=O)C(N(Cc2ccccc2)C(=O)C(=O)N(C)C)C1 ; method: microscopy ; result: >1 µM
CC(C)CCC[C@@H](C)[C@H]1CC[C@H]2[C@@H]3CC[C@H]4C[C@H](NC(=O)C=C(c5cc(Cl)c(O)c(C(=O)O)c5)c5cc(Cl)c(O)c(C(=O)O)c5)CC[C@]4(C)[C@H]3CC[C@]12C ; result: 24.4 µM
COC(=O)N(C)C1CN(C)CCn2c1nc(C(=O)NCc1ccc(F)cc1)c(O)c2=O ; method: microscopy ; result: >1 µM
Nc1ncnc2c1ncn2[C@H]1CC[C@](/C=C/P(=O)(O)O)(C(F)(F)F)C1 ; method: MTT ; result: >100 µM
CC(C)CN(C[C@@H](O)[C@H](Cc1ccccc1)NC(=O)O[C@H]1CO[C@H]2OCC[C@H]21)S(=O)(=O)c1ccc2ncn(Cc3ccccc3)c2c1 ; result: 63.1 µM
CC(C)(C)OC(=O)NCCC(=O)N(Cc1ccccc1)CC(O)CN(Cc1ccccc1)C(=O)CCNC(=O)OC(C)(C)C ; result: 10 µM
CC(C)(C)[Si](C)(C)OC[C@H]1O[C@@H](n2cnc3c(N)ncnc32)[C@H](O[Si](C)(C)C(C)(C)C)C12OS(=O)(=O)C=C2N ; result: 3.9 µg/mL
NCCCC[C@H](COC(N)=O)NC(=O)CN(CCCCN)C(=O)OC[C@@H](N)CCCNc1c(N)c(=O)c1=O ; method: MTT ; result: 1600 µM
Cn1cc(C(=O)O)c(=O)c2ncc(N3CCN(c4nc5ccccc5s4)CC3)cc21 ; method: MTT ; result: >119 µM
CC(C)CN(C[C@@H](O)[C@H](Cc1ccccc1)NC(=O)OC1COC2OCCC12)S(=O)(=O)c1ccc2nc(NC(=O)NCCN(C)C)[nH]c2c1 ; result: >100 µM
CC(C)CCC[C@@H](C)[C@H]1CC[C@H]2[C@@H]3CC[C@H]4C[C@@H](CCC=C(c5cc(Cl)c(O)c(C(=O)O)c5)c5cc(Cl)c(O)c(C(=O)O)c5)CC[C@]4(C)[C@H]3CC[C@]12C ; result: >125 µM
CCn1nc(CC(=O)N/N=C/c2ccco2)nc1C ; result: 104 µg/mL
CC(C)CN(C[C@@H](O)[C@H](Cc1ccccc1)NC(=O)OCc1cncs1)S(=O)(=O)c1ccc2ncn(C)c2c1 ; result: >100 µM
Cc1nc(CC(=O)NN)nn1C ; result: 98.4 µg/mL
COc1c(Cl)cc(C(=CCN[C@H]2CC[C@@]3(C)[C@@H](CC[C@@H]4[C@@H]3CC[C@]3(C)[C@@H]([C@H](C)CCCC(C)C)CC[C@@H]43)C2)c2cc(Cl)c(OC)c(C(=O)O)c2)cc1C(=O)O ; result: >150 µM
CC(C)(C)OC(=O)N(CCC(=O)N(CC(=O)CN(Cc1ccccc1)C(=O)CCN(Cc1ccccc1)C(=O)OC(C)(C)C)Cc1ccccc1)Cc1ccccc1 ; result: >1 µM
CCn1nc(CC(=O)NN=C(C)C)nc1C ; result: 107 µg/mL
C=CCn1c(=O)c(C)cn([C@@H]2O[C@H](CO[Si](C)(C)C(C)(C)C)C3(OS(=O)(=O)C=C3N)[C@H]2O)c1=O ; result: 32 µg/mL
CCc1nc(CC(=O)NN=C(C)C)nn1CC ; result: 112 µg/mL
CC(C)CCC[C@@H](C)[C@H]1CC[C@H]2[C@@H]3CC[C@H]4C[C@@H](NC(=O)CC=C(c5cc(Cl)c(O)c(C(=O)O)c5)c5cc(Cl)c(O)c(C(=O)O)c5)CC[C@]4(C)[C@H]3CC[C@]12C ; result: >60 µM
CCOC(=O)c1cc(O)c(O)c(O)c1 ; method: MTS ; result: >200 µM
NNC(=O)Cc1nc2n(n1)CCCCC2 ; result: 125 µg/mL